The results in this text go back to patent publication US20190374627A1, “TARGET PEPTIDES FOR CANCER THERAPY AND DIAGNOSTICS” (priority 2016, published 2019).

The subject of this data set is HCC tumor tissue, adjacent liver tissue, HepG2 cells. Nature of the data set: Identification of MHC class I-bound phosphopeptides by W6/32 immunoprecipitation, IMAC and HPLC-ESI-MS/MS. Set-up: species or system human.

As for “KIAsEIAQL: CASKIN2 phosphopeptide, HLA-A*0201 (KIASEIAQL; phosphoserine; (4)...(4) The amino acid at this position is optionally phosphorylated; listed as Homo sapiens)”, the “Found on other cancers” value (other malignancies on which the MHC-I-pP was also identified) is “Ovarian Ca”. In addition, where the note is “presentation of HCC-associated HLA-A*0201-restricted MHC-I-pP per cell”, the Copies/cell is listed as 0.3 - 0.8 Copies/cell.
